Pooled drug test results. Numbers come from NIAID ChemDB, via PubChem.

Common to all: tests in culture; agent: Hepatitis B virus; measure: EC50

Blank or dashed fields: not listed here. Conditions beyond the fields shown may differ between rows. Two numbers with a dash give a range or band. ECn is the concentration giving n% inhibition of infection, replication or growth.

structure	strain or isolate	cell line	method	value
O=c1[nH]c(=O)n(COCCO)cc1[N+](=O)[O-]	Mutation M204I	B1	-	30 µM
C[C@@H]1Cn2c(c(C(=O)NCc3ccccc3-n3cncn3)n(-c3ccc(OC4CC4)cc3)c2=O)CN1C(=O)c1ccc(Br)c(Cl)c1	-	HepG2.117	PCR	0.1–0.5 µM
Ic1ccc2ncnc(Nc3ccc(N4CCOCC4)cc3)c2c1	-	HUH 9B	replicon	<1 µM
COCCCOc1ccc2c(c1)S(=O)(=O)C(C)c1cc(C(=O)O)c(=O)n(C3CC3)c1-2	-	Primary human hepatocytes	antigen / visual reading / absorbance	>0.5 µM
Clc1ccc2ncnc(Nc3ccc(N4CCOCC4)cc3)c2c1	-	HUH 9B	replicon	1–5 µM
Cn1nc2cc(N(CCO)S(=O)(=O)NC3CC3)ccc2c1C(=O)Nc1ccc(F)c(Cl)c1	-	HepAD38	PCR	>1000 µM
CNC(=O)c1ccc2ncnc(Nc3ccc(N4CCOCC4)cc3)c2c1	-	HUH 9B	replicon	1–5 µM
O=c1[nH]c(=O)n(COCCO)cc1CO	Mutations L180M M204V	D88	-	30 µM
Cc1n[nH]nc1-c1ccc(-n2c(=O)c3c(n4ncc(CC(C)C)c24)CN(C(=O)c2ccc(Br)c(C(F)(F)F)c2)[C@H](C)C3)cc1	-	HepG2.117	luminescence	≤0.05 µM
CN1CCN(Cc2ccc(-c3ccc4ncnc(Nc5ccc(N6CCOCC6)cc5)c4c3)o2)CC1	-	HUH 9B	replicon	1–5 µM
CCOC(=O)C1=C(CN2CC(F)(F)[C@@H]3[C@H]2CON3C[C@H](O)C(C)(C)C(=O)O)NC(c2nccs2)=N[C@H]1c1cccc(F)c1C	-	HepG2.2.15	PCR	0.064 µM
C[C@H]1Cc2c(n3ncc(Cc4ccccc4)c3n(-c3ccc(-c4cnnn4C)cc3)c2=O)CN1C(=O)c1ccc(Br)c(C(F)(F)F)c1	-	HepG2.117	luminescence	0.05–0.5 µM
CCC1c2cc(C(=O)O)c(=O)n(C3CCCC3)c2-c2cc(Cl)c(OCCCOC)cc2S1(=O)=O	-	Primary human hepatocytes	antigen / visual reading / absorbance	>0.5 µM
C[C@H]1Cn2c(c(C(=O)NCc3ccccc3-n3cccn3)n(-c3ccc(OC4CC4)cc3)c2=O)CN1C(=O)c1ccc(Br)c(Cl)c1	-	HepG2.117	PCR	<0.1 µM
CCNC(=O)C(=O)N1CCC(NS(=O)(=O)c2cn(C)c(C(=O)Nc3cccc(C(F)(F)F)c3)c2F)CC1	-	HepAD38 cells	PCR	<0.1 µM
COC(=O)C1=C(CN2CC(F)(F)[C@@H]3[C@H]2CON3C[C@@H](OC)C(C)(C)C(=O)O)NC(c2nccs2)=N[C@H]1c1ccc(F)c(F)c1F	-	HepG2.2.15	PCR	0.011 µM
C=C[C@@](C)(CO)NC(=O)C(=O)c1c(C)c(C(=O)Nc2ccc(F)c(C(F)(F)F)c2)n(C)c1C	-	HepG2.2.15	PCR	0.001–0.0099 µM
COCCCOc1cc2c(cc1COC)-c1c(cc(C(=O)O)c(=O)n1C1CC1)C(C)S2(=O)=O	-	Primary human hepatocytes	antigen / visual reading / absorbance	>0.5 µM
CNC(=O)c1ccc(-n2c(=O)c3c(n4ncc(Cc5ccccc5)c24)CN(C(=O)c2ccc(Br)c(C(F)(F)F)c2)[C@H](C2CC2)C3)cc1	-	HepG2.117	luminescence	≤0.05 µM
CCS(=O)(=O)N1CCC2(NS(=O)(=O)c3cn(C)c(C(=O)Nc4ccc(F)c(F)c4)c3F)CC2C1	-	HepAD38 cells	PCR	<0.1 µM
C#CC1(NC(=O)C(=O)c2c(C)c(C(=O)Nc3ccc(F)c(C(F)F)c3)n(C)c2Cl)CC(F)(F)C1	-	HepG2.2.15	PCR	0.001–0.0099 µM
Cn1nc2ccc(NC(=O)OCc3ccccc3)cc2c1C(=O)Nc1ccc(F)c(Cl)c1	-	HepAD38	PCR	>1000 µM
O=C(NCc1ccccc1-c1ncccn1)c1c2n(c(=O)n1-c1ccc(OCC(F)(F)F)cc1)CCN(C(=O)c1ccc(Br)c(Cl)c1)C2	-	HepG2.117	PCR	<0.1 µM
O=c1[nH]c(=O)n(COCCO)cc1Br	Mutations L180M M204V	D88	-	73 µM
Cc1c(C(=O)C(=O)NC(C)(C)c2cn(C)cn2)c(C)n(C)c1C(=O)Nc1ccc(F)c(C(F)(F)F)c1	-	HepG2.2.15	PCR	0.1–0.999 µM
Cc1cc(N2CCOCC2)ccc1Nc1ncnc2ccc(-c3cccs3)cc12	-	HUH 9B	replicon	<1 µM
Cc1c(C(=O)C(=O)NC(C)(C)c2cnc[nH]2)c(C)n(C)c1C(=O)Nc1ccc(F)c(C(F)(F)F)c1	-	HepG2.2.15	PCR	0.001–0.0099 µM
Cc1n[nH]nc1-c1ccc(-n2c(=O)c3c(n4ncc(Cc5ccccc5)c24)CN(C(=O)c2ccc(Br)c(C(F)(F)F)c2)[C@H](C)C3)cc1	-	HepG2.117	luminescence	≤0.05 µM
COC(=O)C1=C(CN2CC(F)(F)[C@H]3[C@@H]2CCN3C[C@@H](F)C(C)(C)C(=O)O)NC(c2nc(C)cs2)=N[C@H]1c1cccc(F)c1C	-	HepG2.2.15	PCR	0.005 µM
Cn1nc2cc(C(=O)Nc3cnn(-c4ccccn4)c3)ccc2c1C(=O)Nc1ccc(F)c(Cl)c1	-	HepAD38	PCR	100–1000 µM
COCCCOc1cc2c(cc1Cl)-c1c(cc(C(=O)O)c(=O)n1C1CC1)C1(CCC1)S2(=O)=O	-	Primary human hepatocytes	antigen / visual reading / absorbance	>0.5 µM
COc1ccc(-n2c(C(=O)NCc3ccccc3OC)c3n(c2=O)CCN(C(=O)c2ccc(Br)c(Cl)c2)C3)cc1	-	HepG2.117	PCR	0.1–0.5 µM
COCCCOc1cc2c(cc1C(C)C)-c1c(cc(C(=O)O)c(=O)n1C1CC1)C(C)S2(=O)=O	-	Primary human hepatocytes	antigen / visual reading / absorbance	>0.5 µM
COc1ccc([C@H](C)NC(=O)c2c3n(c(=O)n2-c2ccc(OC(C)C)cc2)CCN(C(=O)c2ccc(Br)c(Cl)c2)C3)c(F)c1	-	HepG2.117	PCR	0.1–0.5 µM
COCCCOc1cc2c(cc1Cl)-c1c(cc(C(=O)O)c(=O)n1C1CC1)CS2=O	-	Primary human hepatocytes	antigen / visual reading / absorbance	0.05–0.1 µM
O=c1[nH]c(=O)n(COC(CO)CO)cc1Cl	Mutant L180M/M204V	D88	-	40 µg/mL
N=c1nc(N)c2ncn([C@@H]3O[C@H](CO)[C@@H](O)[C@H]3O)c2c(N)n1	-	2.2.15	antigen	>10 µM
CN(c1ccc(N2CCOCC2)cc1)c1ncnc2ccc(I)cc12	-	HUH 9B	replicon	<1 µM
CN1[C@H](C(=O)Nc2ccc(F)c(Cl)c2)C[C@H](c2ncc(-c3cn(C)cn3)s2)NS1(=O)=O	Genotype D	PHH	fluorescence	0.041 µM
C[C@@H]1Cc2c(n3ncc(Cc4ccccc4)c3n(-c3ccc(-c4n[nH]c(C(F)(F)F)n4)cc3)c2=O)CN1C(=O)c1ccc(Br)c(C(F)(F)F)c1	-	HepG2.117	luminescence	≤0.05 µM
COCCCOc1cc2c(cc1NC(C)=O)-c1c(cc(C(=O)O)c(=O)n1C1CC1)C(C)S2(=O)=O	-	Primary human hepatocytes	antigen / visual reading / absorbance	>0.5 µM
CCOC(=O)C1=C(CN2CC(F)(F)[C@H]3[C@@H]2CCN3C[C@@H](F)C(C)(C)C(=O)O)NC(c2nc(C)cs2)=N[C@H]1c1cccc(F)c1C	-	HepG2.2.15	PCR	0.001 µM
CCNC(=O)C(=O)N1CCC(NS(=O)(=O)c2cn(C)c(C(=O)Nc3cc(F)c(F)c(F)c3)c2F)C(C)(C)C1	-	HepAD38 cells	PCR	<0.1 µM
CCOC(=O)C1=C(CN2CC(F)(F)[C@@H]3[C@H]2CON3C[C@@H](F)C(C)(C)C(=O)O)NC(c2nccs2)=N[C@H]1c1cccc(F)c1C	-	HepG2.2.15	PCR	0.011 µM
Cn1nc2cc(NS(=O)(=O)NC3CC3)ccc2c1C(=O)Nc1ccc(F)c(Cl)c1	-	HepAD38	PCR	<100 µM
CCNC(=O)C(=O)N1CCC(NS(=O)(=O)c2c(F)c(C(=O)Nc3ccc(F)c(F)c3)n(C)c2C)CC1	-	HepAD38 cells	PCR	<0.1 µM
Cn1nccc1S(=O)(=O)Nc1ccc2c(C(=O)Nc3ccc(F)c(Cl)c3)n(C)nc2c1	-	HepAD38	PCR	100–1000 µM
COCCCOc1cc2c(cc1Cl)-c1c(cc(C(=O)O)c(=O)n1C1CC1)C(C1COC1)S2(=O)=O	-	Primary human hepatocytes	antigen / visual reading / absorbance	0.1–0.5 µM
O=c1ccn(COCCO)c(=S)[nH]1	Mutation M204I	B1	-	30 µM
CNC(=O)c1ccc(-n2c(=O)c3c(n4ncc(CC(C)C)c24)CN(C(=O)c2ccc(Cl)c(C(F)(F)F)c2)[C@@H](C)C3)cc1	-	HepG2.117	luminescence	0.05–0.5 µM
FC(F)(F)c1cc(N2CCOCC2)ccc1Nc1ncnc2ccc(I)cc12	-	HUH 9B	replicon	<1 µM
Nc1ccn([C@@H]2CS[C@H](CO)O2)c(=O)n1	-	HepG2	-	0.05 µM
CCOC(=O)C1=C(CN2CC(F)(F)[C@@H]3[C@H]2CON3C[C@@H](F)C(C)(C)C(=O)O)NC(c2nc(C)cs2)=N[C@H]1c1cccc(F)c1C	-	HepG2.2.15	PCR	0.008 µM
COc1ccc(CNC(=O)C2C3CN(C(=O)c4ccc(Br)c(Cl)c4)CCN3CN2c2ccc(C#N)cc2)c(F)c1	-	HepG2.117	PCR	0.5–5 µM
Cn1cc(NC(=O)CS(=O)(=O)Nc2ccc3c(C(=O)Nc4ccc(F)c(Cl)c4)n(C)nc3c2)cn1	-	HepAD38	PCR	>1000 µM
Cc1nc(-c2ccc(-n3c(=O)c4c(n5ncc(Cc6ccccc6)c35)CN(C(=O)c3ccc(Br)c(C(F)(F)F)c3)[C@@H](C)C4)cc2)n[nH]1	-	HepG2.117	luminescence	≤0.05 µM
Cn1nc2cc(NS(=O)(=O)NCCc3ccccn3)ccc2c1C(=O)Nc1ccc(F)c(Cl)c1	-	HepAD38	PCR	100–1000 µM
Cc1nc(-c2ccc(-n3c(=O)c4c(n5ncc(Cc6ccccc6)c35)CN(C(=O)c3ccc(Cl)c(C(F)(F)F)c3)[C@@H](C)C4)cc2)n[nH]1	-	HepG2.117	luminescence	0.05–0.5 µM
CN(C)c1ccnc(-n2cc(S(=O)(=O)Nc3ccc4c(C(=O)Nc5ccc(F)c(Cl)c5)n(C)nc4c3)cn2)n1	-	HepAD38	PCR	<100 µM
Cc1c(I)c(=O)[nH]c(=O)n1COCCO	Mutations L180M M204V	D88	-	25 µM

Repeating the final 7 entries:

structure	strain or isolate	cell line	method	value
COc1ccc(CNC(=O)C2C3CN(C(=O)c4ccc(Br)c(Cl)c4)CCN3CN2c2ccc(C#N)cc2)c(F)c1	-	HepG2.117	PCR	0.5–5 µM
Cn1cc(NC(=O)CS(=O)(=O)Nc2ccc3c(C(=O)Nc4ccc(F)c(Cl)c4)n(C)nc3c2)cn1	-	HepAD38	PCR	>1000 µM
Cc1nc(-c2ccc(-n3c(=O)c4c(n5ncc(Cc6ccccc6)c35)CN(C(=O)c3ccc(Br)c(C(F)(F)F)c3)[C@@H](C)C4)cc2)n[nH]1	-	HepG2.117	luminescence	≤0.05 µM
Cn1nc2cc(NS(=O)(=O)NCCc3ccccn3)ccc2c1C(=O)Nc1ccc(F)c(Cl)c1	-	HepAD38	PCR	100–1000 µM
Cc1nc(-c2ccc(-n3c(=O)c4c(n5ncc(Cc6ccccc6)c35)CN(C(=O)c3ccc(Cl)c(C(F)(F)F)c3)[C@@H](C)C4)cc2)n[nH]1	-	HepG2.117	luminescence	0.05–0.5 µM
CN(C)c1ccnc(-n2cc(S(=O)(=O)Nc3ccc4c(C(=O)Nc5ccc(F)c(Cl)c5)n(C)nc4c3)cn2)n1	-	HepAD38	PCR	<100 µM
Cc1c(I)c(=O)[nH]c(=O)n1COCCO	Mutations L180M M204V	D88	-	25 µM